For 1 compound, Stability results are on record in ChEMBL document CHEMBL3124763, “Optimization of furin inhibitors to protect against the activation of influenza hemagglutinin H5 and Shiga toxin” (J Med Chem, 2014).

Data set [1] is described as follows: Drug degradation in human DU145 cell culture medium assessed as deltaKKRT formation at 20 ug after 6 hrs by MALDI-TOF analysis. The note with it: du-145, 6 h.
A short description of data set [2]: Drug degradation in human DU145 cell culture medium assessed as deltaRT formation at 20 ug after 6 hrs by MALDI-TOF analysis. The note with it: du-145, 6 h.

Molecules are shown by their SMILES.

In the case of `CC(=O)NN(CCCN=C(N)N)CC(=O)N[C@@H](C)C(=O)N[C@@H](CCCN=C(N)N)C(=O)N[C@@H](CCCN=C(N)N)C(=O)N[C@@H](CCCN=C(N)N)C(=O)N[C@@H](CCCCN)C(=O)N[C@@H](CCCCN)C(=O)NN(CCCN=C(N)N)CC(=O)N[C@H](C(N)=O)[C@@H](C)O`, the Stability result in data set [1] and in data set [2] was “Unstable” in each case.
